Compound potency records, mixed from different reports. Data source: NIAID ChemDB in PubChem.

Common to all: tests in culture; organism: HIV-1

Blank or dashed fields: not listed here.

{"SMILES": "CC(C)(C)NC(=O)[C@H]1N(C(=O)[C@@H](O)[C@H](Cc2ccccc2)NC(=O)[C@H](CC(N)=O)NC(=O)COc2cccc3ccccc23)CSC1(C)C", "read by": "p24", "measure": "EC90", "strain": "Clinical isolates", "cells": "PBMC", "result": "0.23 µM"}
{"SMILES": "CC(C)(C)OC(=O)N[C@@H](Cc1ccc(OCCN2CCOCC2)cc1)[C@@H](O)C[C@@H](Cc1ccccc1)C(=O)N[C@H]1c2ccccc2C[C@H]1O", "read by": "antigen", "measure": "EC50", "strain": "IIIB", "cells": "H9", "result": "<0.05 µM"}
{"SMILES": "O=c1[nH]cnc2c1ncn2[C@H]1CC[C@@H](CO)O1", "read by": "p24", "measure": "EC50", "strain": "Recombinant", "cells": "PBMC", "changes": "RT-F116Y", "result": "0.3 µM"}
{"SMILES": "O=C(O)P(=O)(O)O", "read by": "syncytia", "measure": "EC50", "strain": "LAI viral clone (RT-E89G)", "cells": "HT4LACZ-1 + HT4 LacZ-1", "changes": "RT-E89G", "result": "504 µM"}
{"SMILES": "CSC[C@H](NC(=O)COc1cccc2cnccc12)C(=O)N[C@@H](Cc1ccccc1)[C@H](O)C(=O)N1CSC(C)(C)[C@H]1C(=O)NC(C)(C)C", "read by": "p24", "measure": "EC90", "strain": "Clinical isolates", "cells": "PBMC", "result": "0.04 µM"}
{"SMILES": "Cc1occc1C(=S)Nc1ccc(Cl)c(/C=N/OC(C)(C)C)c1", "read by": "syncytia", "measure": "EC50", "strain": "IIIB", "cells": "CEM", "changes": "RT-V106A", "result": "0.13 µg/mL"}
{"SMILES": "CCN[C@H]1CO[C@@H]2OCC[C@H](OC(=O)N[C@@H](Cc3ccccc3)[C@H](O)CN(CC(C)C)S(=O)(=O)c3ccc4nc(NC5CC5)sc4c3)[C@@H]21", "read by": "p24 / luminescence", "measure": "EC50", "strain": "NL4-3", "cells": "MT-4", "result": "0.0025 µM"}
{"SMILES": "Cc1occc1C(=S)Nc1ccc(Cl)c(C(=O)OC2CCCC2)c1", "read by": "syncytia", "measure": "EC50", "strain": "IIIB", "cells": "CEM", "result": "0.005 µg/mL"}
{"SMILES": "Cc1cn([C@H]2C[C@H](N=[N+]=[N-])[C@@H](CO)O2)c(=O)[nH]c1=O", "read by": "p24", "measure": "EC50", "strain": "8890 CLADE C CLADE C", "cells": "PBMC", "result": "0.006 µM"}
{"SMILES": "CN[C@H]1CO[C@@H]2OCC[C@H](OC(=O)N[C@@H](Cc3cccc(OC)c3)[C@H](O)CN(CC(C)C)S(=O)(=O)c3ccc4nc(NC(C)C)sc4c3)[C@@H]21", "read by": "p24 / luminescence", "measure": "EC50", "strain": "NL4-3", "cells": "MT-4", "changes": "L10I I54V K20R L24I V32I L33F M36I M46I I54M L63P K70Q V82I I84V L89M", "result": "0.061 µM"}
{"SMILES": "COc1cc(-c2ccc(N=Nc3c(S(=O)(=O)[O-])cc4cc(S(=O)(=O)[O-])cc(N)c4c3O)c(OC)c2)ccc1N=Nc1c(S(=O)(=O)[O-])cc2cc(S(=O)(=O)[O-])cc(N)c2c1O.[Na+].[Na+].[Na+].[Na+]", "read by": "cytopathic effect / XTT", "measure": "EC50", "strain": "RF", "cells": "CEM + CEM-SS", "result": ">12 µM"}
{"SMILES": "CC(C)Nc1cccnc1N1CCN(C(=O)c2cc3cc(NS(C)(=O)=O)ccc3[nH]2)CC1", "read by": "syncytia", "measure": "EC50", "strain": "IIIB", "cells": "CEM", "changes": "RT-E138K", "result": "0.016 µg/mL"}
{"SMILES": "Nc1ccn([C@@H]2CS[C@H](CO)O2)c(=O)n1", "read by": "p24", "measure": "EC50", "strain": "RT-Q151M Recombinant", "cells": "PBMC", "changes": "RT-Q151M", "result": "0.02 µM"}
{"SMILES": "COc1ccc(S(=O)(=O)N(CC(C)C)C[C@@H](O)[C@H](Cc2ccccc2)NC(=O)O[C@H]2CCO[C@H]3OCC[C@H]32)cc1", "read by": "p24 / luminescence", "measure": "EC50", "strain": "NL4-3", "cells": "MT-4", "changes": "L10I I15V K20R L24I V32I M36I M46I L63P K70Q V82A I84V L89M", "result": ">1 µM"}
{"SMILES": "Cc1cn([C@H]2C[C@H](N=[N+]=[N-])[C@@H](CO)O2)c(=O)[nH]c1=O", "read by": "cytopathic effect / XTT", "measure": "EC50", "strain": "RF", "cells": "CEM + CEM-SS", "result": "0.0003 µM"}
{"SMILES": "O=c1[nH]cnc2c1ncn2[C@H]1CC[C@@H](CO)O1", "read by": "cytopathic effect / MTT", "measure": "EC50", "strain": "HXB2", "cells": "MT-4", "result": "2.24 µM"}
{"SMILES": "CC(C)(C)OC(=O)N[C@@H](Cc1ccccc1)[C@@H](O)C[C@@H](Cc1ccc(OCCN2CCOCC2)cc1)C(=O)N[C@H]1c2ccccc2C[C@H]1O", "read by": "antigen", "measure": "EC50", "strain": "SF162", "cells": "Monocytes/macrophages", "result": "<0.025 µM"}
{"SMILES": "COC(=O)N[C@H](C(=O)N[C@@H](Cc1ccccc1)[C@@H](O)CN(Cc1ccc(-c2ccccn2)cc1)NC(=O)[C@@H](NC(=O)OC)C(C)(C)C)C(C)(C)C", "read by": "p24 / luminescence", "measure": "EC50", "strain": "NL4-3", "cells": "MT-4", "changes": "L10I N37D G48V I54V L63P G73C I84V L90M", "result": ">1 µM"}
{"SMILES": "CC(C)(C)OC(=O)N[C@@H](Cc1ccccc1)[C@@H](O)C[C@@H](Cc1ccc(OCc2ccccc2)cc1)C(=O)N[C@H]1c2ccccc2C[C@H]1O", "read by": "p24", "measure": "EC50", "strain": "IIIB", "cells": "H9", "result": "<0.05 µM"}
{"SMILES": "CC(C)=CCN1Cc2cc(Cl)cc3[nH]c(=S)n(c23)C[C@@H]1C", "read by": "syncytia", "measure": "EC50", "strain": "IIIB", "cells": "CEM", "result": "0.06 µM"}
{"SMILES": "O=c1[nH]cnc2c1ncn2[C@H]1CC[C@@H](CO)O1", "read by": "cytopathic effect", "measure": "EC50", "strain": "DI-06.92 (HXB2 RT-K70R)", "cells": "MT-4", "changes": "RT-K70R", "result": "5.2 µM"}
{"SMILES": "CC(C)(C)OC(=O)N[C@@H](Cc1ccc(O)cc1)[C@@H](O)C[C@@H](Cc1ccc(O)cc1)C(=O)N[C@H]1c2ccccc2C[C@H]1O", "read by": "antigen", "measure": "EC50", "strain": "IIIB", "cells": "H9", "result": "<0.78 µM"}
{"SMILES": "Cc1cn([C@H]2C=C[C@@H](CO)O2)c(=O)[nH]c1=O", "read by": "cytopathic effect", "measure": "EC50", "strain": "FO-01.95", "cells": "MT-4", "result": "1.72 µM"}
{"SMILES": "CCc1cc(NCc2nc3c(Cl)ccc(Cl)c3o2)c(=O)[nH]c1C", "read by": "syncytia", "measure": "EC50", "strain": "Quin-0.1 (RT V106A P225H)", "cells": "CEM", "changes": "RT-V106A P225H", "result": "0.085 µM"}
{"SMILES": "CCN[C@H]1CO[C@@H]2OCC[C@H](OC(=O)N[C@@H](Cc3cccc(OC)c3)[C@H](O)CN(CC(C)C)S(=O)(=O)c3ccc4nc(NC(C)C)sc4c3)[C@@H]21", "read by": "p24 / luminescence", "measure": "EC50", "strain": "NL4-3", "cells": "MT-4", "changes": "L10F V32I L33F M46L I54M A71V", "result": "0.0069 µM"}
{"SMILES": "Nc1ccn([C@H]2CC[C@@H](CO)O2)c(=O)n1", "read by": "cytopathic effect / MTT", "measure": "EC95", "strain": "RF", "cells": "CEM + CEM-SS", "result": "142 µM"}
{"SMILES": "Cc1cn([C@@H]2O[C@H](CO[Si](C)(C)C(C)(C)C)C3(OS(=O)(=O)C=C3N)[C@H]2O[Si](C)(C)C(C)(C)C)c(=O)n(C)c1=O", "read by": "syncytia", "measure": "EC50", "strain": "HEPT (RT Y188H)", "cells": "CEM", "changes": "RT-Y188H", "result": "75 µM"}
{"SMILES": "Cc1ccnc2c1NC(=O)c1cccnc1N2C1CC1", "read by": "plaque count", "measure": "EC50", "strain": "HXB2", "cells": "HT4 + HT4 LacZ-1", "result": "0.06 µM"}
{"SMILES": "CC1(C)C2=CC(=O)C(O)(c3ccccc3)C(=O)N2c2ccc(Cl)cc21", "read by": "cytopathic effect / MTT", "measure": "EC50", "strain": "RF", "cells": "MT-4", "result": "0.58 µM"}
{"SMILES": "CC(C)Nc1cccnc1N1CCN(C(=O)c2cc3cc(NS(C)(=O)=O)ccc3[nH]2)CC1", "read by": "cytopathic effect", "measure": "EC50", "strain": "DI-06.92 (HXB2 RT-K70R)", "cells": "MT-4", "changes": "RT-K70R", "result": "0.02 µM"}
{"SMILES": "CCOCn1c(Cc2ccccc2)c(C(C)C)c(=O)[nH]c1=O", "read by": "syncytia", "measure": "EC50", "strain": "IIIB", "cells": "CEM", "changes": "RT-M184V", "result": "0.002 µg/mL"}

Repeating the final 4 entries:

SMILES | read by | measure | strain | cells | changes | result
Cc1ccnc2c1NC(=O)c1cccnc1N2C1CC1 | plaque count | EC50 | HXB2 | HT4 + HT4 LacZ-1 |  | 0.06 µM
CC1(C)C2=CC(=O)C(O)(c3ccccc3)C(=O)N2c2ccc(Cl)cc21 | cytopathic effect / MTT | EC50 | RF | MT-4 |  | 0.58 µM
CC(C)Nc1cccnc1N1CCN(C(=O)c2cc3cc(NS(C)(=O)=O)ccc3[nH]2)CC1 | cytopathic effect | EC50 | DI-06.92 (HXB2 RT-K70R) | MT-4 | RT-K70R | 0.02 µM
CCOCn1c(Cc2ccccc2)c(C(C)C)c(=O)[nH]c1=O | syncytia | EC50 | IIIB | CEM | RT-M184V | 0.002 µg/mL

Rows are shuffled and stem from different studies. ECn is the concentration giving n% inhibition of infection, replication or growth.